Measured values from several laboratories, pooled; numbers as filed in NIAID ChemDB.

Blank or dashed fields: not listed here.

compound | strain | organism | measure | kind | method | dose | target | value
CCCc1nn(C)c(CCC(=O)N(Cc2ccccc2)Cc2ccccc2)c1CC | H37Rv | Mycobacterium tuberculosis | MIC bound | culture | resazurin |  |  | >6.25 µg/mL
CN(C)c1ccc(-c2ccc3ccc4ccccc4c3n2)cc1 | H37Rv | Mycobacterium tuberculosis | MIC | culture |  |  |  | >100 µg/mL
CCCCC(CC)CN1CN(CC(CC)CCCC)CC(C)(NCCNCCc2cccc(F)c2)C1 |  | Mycobacterium tuberculosis | MIC | culture |  |  |  | 12.5 µM
NNP(=O)(NN)C(Cl)(Cl)Cl | H37Rv | Mycobacterium tuberculosis | inhibition | culture | BACTEC | 12.5 µg/mL |  | 0%
COc1cccc(F)c1N.Cl | H37Rv | Mycobacterium tuberculosis | MIC | culture |  |  |  | >100 µg/mL
CC(CNCC(c1ccccc1)c1ccccc1)NC1CCCCCCC1 |  | Mycobacterium tuberculosis | MIC | culture |  |  |  | 50 µM
Cc1cc(C)c(C(=O)C(=O)c2ccccc2)c(C)c1 | H37Rv | Mycobacterium tuberculosis | MIC | culture |  |  |  | >100 µg/mL
CC1N2C3(c4ccccc4)OC(c4ccccc4)(c4ccccc43)C12c1ccccc1 | H37Rv | Mycobacterium tuberculosis | MIC bound | culture | BACTEC |  |  | >12.5 µg/mL
Fc1ccc(N2CCCCC2)c(NC(=S)c2ccncc2)c1 |  |  | inhibition | host protein | kinase activity | 10 µM | LIMK1 | 12%
Cc1ccc(NC(=O)c2ccccc2C(=O)O)cc1Cl | H37Rv | Mycobacterium tuberculosis | MIC bound | culture | BACTEC |  |  | >12.5 µg/mL
CC(=O)Nc1ccc(S(=O)(=O)Nc2nc3ccc(C)cc3s2)cc1 | H37Rv | Mycobacterium tuberculosis | MIC | culture |  |  |  | 100 µg/mL
O=C(O)/C=C/c1ccc([N+](=O)[O-])o1 | H37Rv | Mycobacterium tuberculosis | inhibition | culture | resazurin | 6.25 µg/mL |  | -9%
O=C1C=CC(=O)C(Nc2cccc(O)c2)=C1 | H37Rv | Mycobacterium tuberculosis | MIC | culture |  |  |  | >100 µg/mL
CCCCCCCCCCCNCCNCC(C)c1ccccc1 |  | Mycobacterium tuberculosis | MIC | culture |  |  |  | 6.25 µM
Cc1cc(N=Nc2ccc(N(C)C)c(C)c2)ccc1N(C)C | H37Rv | Mycobacterium tuberculosis | MIC | culture |  |  |  | >100 µg/mL
CCOC(=O)c1c(SCc2cc(=O)[nH]c(=O)[nH]2)n(-c2ccccc2)c(=S)n(-c2ccccc2)c1=O | H37Rv | Mycobacterium tuberculosis | inhibition | culture | BACTEC | 12.5 µg/mL |  | 0%
Nc1nccc(Nc2ccc(-c3ccccc3)cc2)n1 | H37Rv | Mycobacterium tuberculosis | MIC | culture |  |  |  | 100 µg/mL
Cc1ncc([N+](=O)[O-])n1CCNC(=O)CCCn1ccnc1[N+](=O)[O-] | H37Rv | Mycobacterium tuberculosis | inhibition | culture | resazurin | 6.25 µg/mL |  | -39%
COc1ccc(C(C)=O)cc1N | H37Rv | Mycobacterium tuberculosis | MIC | culture |  |  |  | >100 µg/mL
Clc1ccc(CCNCCNCCc2ccccc2)c(Cl)c1 |  | Mycobacterium tuberculosis | MIC | culture |  |  |  | 50 µM
O=C(O)c1c(O)cc(O)cc1O | H37Rv | Mycobacterium tuberculosis | MIC | culture |  |  |  | 50 µg/mL
C=CCc1ccc(OC)c(OC)c1 | 2643 | Candida albicans | MIC90 | culture | turbidity |  |  | 340 µg/mL
N#CCCSC(=S)N1CCCC1=O | H37Rv | Mycobacterium tuberculosis | MIC | culture | BACTEC |  |  | 32 µg/mL
C=CCNCCNC1(C)CN(CC(CC)CCCC)CN(CC(CC)CCCC)C1 |  | Mycobacterium tuberculosis | MIC | culture |  |  |  | 12.5 µM
COc1ccc(-c2cnc(C(N)=O)c(=O)[nH]2)cc1 | H37Rv | Mycobacterium tuberculosis | MIC bound | culture | BACTEC |  |  | >12.5 µg/mL
COc1ccc(CCNCCNCCc2ccc(F)cc2)cc1 |  | Mycobacterium tuberculosis | MIC | culture |  |  |  | 12.5 µM
Oc1ccc(O)cc1 | H37Rv | Mycobacterium tuberculosis | MIC | culture |  |  |  | 100 µg/mL
CC(C)c1ccc2c(c1)CC[C@H]1[C@](C)(CNCCNCCF)CCC[C@]21C |  | Mycobacterium tuberculosis | MIC | culture |  |  |  | 25 µM
O=C1CCC[C@@H]2[C@H]3C[C@@H](CN12)[C@@H]1C[C@@H](O)CCN1C3 | H37Rv | Mycobacterium tuberculosis | inhibition | culture | BACTEC | 12.8 µg/mL |  | 6%
c1ccc2c(c1)CC(NCCNC13CC4CC(CC1C4)C3)C2 |  | Mycobacterium tuberculosis | MIC | culture |  |  |  | 50 µM
COc1cccc(OC)c1C(=O)O | H37Rv | Mycobacterium tuberculosis | MIC | culture |  |  |  | >100 µg/mL
O=C1NC(C2CCC3CN32)C(=O)NC1C1CCC2CN21 | H37Rv | Mycobacterium tuberculosis | MIC | culture | BACTEC |  |  | ≥12.5 µg/mL
COC[C@H](NCCNC[C@]1(C)CCC[C@]2(C)c3ccc(C(C)C)cc3CC[C@@H]12)[C@@H](O)c1ccccc1 |  | Mycobacterium tuberculosis | MIC | culture |  |  |  | 50 µM

3 of the rows above, restated:

compound	strain	organism	measure	kind	method	dose	target	value
Fc1ccc(N2CCCCC2)c(NC(=S)c2ccncc2)c1			inhibition	host protein	kinase activity	10 µM	LIMK1	12%
c1ccc2c(c1)CC(NCCNC13CC4CC(CC1C4)C3)C2		Mycobacterium tuberculosis	MIC	culture				50 µM
COc1cccc(F)c1N.Cl	H37Rv	Mycobacterium tuberculosis	MIC	culture				>100 µg/mL

Inhibition is in % at the dose shown (toxicity tests: loss of growth or viability). Conditions beyond the fields shown may differ between rows. MIC bound comes from a single tested concentration. MIC50, MIC90 and the like: level of inhibition, or share of isolates inhibited.